Experiment [1] relates to Human immunodeficiency virus type 1 reverse transcriptase (Human immunodeficiency virus 1), Q72547 [Y181I].
The subject of experiment [2] is Human immunodeficiency virus type 1 reverse transcriptase (Human immunodeficiency virus 1), Q72547 [K103N].
Experiment [3] relates to Human immunodeficiency virus type 1 reverse transcriptase (Human immunodeficiency virus 1), Q72547 [L100I].

As to `Cc1c(O)nc(SC(C)C)nc1C(C)c1c(F)cccc1F` (stereo not drawn), the ID50 in experiment [1] came out at 47 µM.
As to `Cc1c(C(C)c2c(F)cccc2Cl)nc(SC(C)C)[nH]c1=O` (stereo not drawn), the ID50 in experiment [1] was 200 µM; in experiment [2], 1.4 µM.
Turning to `CCC(c1nc(SC(C)C)[nH]c(=O)c1C)c1c(F)cccc1F` (stereo not drawn), in experiment [1], the ID50 was found to be 4.1 µM.
Compound `CCC(c1nc(SC2CCCC2)[nH]c(=O)c1C)c1c(F)cccc1F` (stereo not drawn) registered an ID50 in experiment [1] of 4.9 µM.
The same measure, in the same setting: the value for `CCC(C)Sc1nc(O)c(C)c(C(C)c2c(F)cccc2F)n1` (stereo not drawn) was 96 µM; that for `CCC(c1nc(SC2CCCC2)[nH]c(=O)c1C)c1c(F)cccc1Cl` (stereo not drawn) was 6 µM.
Turning to `CCC(C)Sc1nc(C(C)c2c(F)cccc2Cl)c(C)c(=O)[nH]1` (stereo not drawn), the ID50 in experiment [3] is 0.075 µM; in experiment [1] it was 35 µM; in experiment [2] it was 1.75 µM.
Consider `CCC(C)Sc1nc(C(CC)c2c(F)cccc2F)c(C)c(=O)[nH]1` (stereo not drawn), for which the ID50 in experiment [1] was found to be 4 µM.
In the case of `CCC(C)Sc1nc(C(CC)c2c(F)cccc2Cl)c(C)c(=O)[nH]1` (stereo not drawn), in experiment [1], the ID50 was determined as 5.9 µM.
The same measure, in the same setting: to `CCC(c1nc(SC(C)C)[nH]c(=O)c1C)c1c(F)cccc1Cl` (stereo not drawn) belongs 7.7 µM.

These data come from ChEMBL document CHEMBL4371047, “Effect of α-Methoxy Substitution on the Anti-HIV Activity of Dihydropyrimidin-4(3 H)-ones” (J Med Chem, 2019).
